Results of unrelated studies side by side (data: NIAID ChemDB).

All rows: whole-cell or culture tests; organism: HIV-1; read by: p24; endpoint: fold resistance

Blank or dashed fields: not listed here. Two numbers with a dash give a range or band. Fold resistance: result on the changed form divided by that on wild type. Neighbouring rows are from separate reports.

{"smiles": "CCN1c2ncc(CCOc3ccc(NC(=O)CCC(=O)O)c4ccccc34)cc2C(=O)N(C)c2cccnc21", "cell line": "C8166", "mutations": "RT-K103N Y181C", "value": "1–10"}
{"smiles": "CCN1c2ncc(CCOc3ccc(-c4cccc[n+]4[O-])cc3C)cc2C(=O)N(C)c2cccnc21", "cell line": "C8166", "mutations": "RT-K103N Y181C", "value": "1"}
{"smiles": "COC(=O)[C@H](C)NP(=O)(OC[C@@H]1C=C[C@H](n2cc(C)c(=O)[nH]c2=O)O1)Oc1ccccc1Br", "strain or isolate": "A17", "cell line": "PBMC", "mutations": "RT-Y181C", "value": "21"}
{"smiles": "C/C=C/CSc1cc(NC(=S)c2ccsc2C)ccc1Cl", "strain or isolate": "NL4-3", "cell line": "CEM + CEM-SS", "mutations": "RT-V106I", "value": "34"}
{"smiles": "CCN1c2ncc(CCOc3cccc4c3CNC4=O)cc2C(=O)Nc2c(C)ccnc21", "cell line": "C8166", "mutations": "RT-K103N Y181C", "value": "1"}
{"smiles": "O=C1Nc2ccc(Cl)c3c2[C@](C(F)(F)F)(C=C(c2cccnc2)O3)N1", "cell line": "MT-4", "mutations": "RT-L100I K103N", "value": "195"}
{"smiles": "CC(C)[C@H](NC(=O)OCc1ccccn1)C(=O)N[C@@H](Cc1ccccc1)[C@@H](O)C[C@H](Cc1ccccc1)NC(=O)OCc1cccnc1", "strain or isolate": "NL4-3", "cell line": "MT-4", "mutations": "PR-L63P V82T I84V", "value": "3.75"}
{"smiles": "C=C(C)[C@@H]1CC[C@]2(C(=O)NCCCCCCCC(=O)N[C@@H](CC(C)C)[C@@H](O)CC(=O)O)CC[C@]3(C)[C@H](CC[C@@H]4[C@@]5(C)CC[C@H](O)C(C)(C)[C@@H]5CC[C@]43C)[C@@H]12", "strain or isolate": "LAI-R(GP41-I84S)", "cell line": "HeLa P4 + HeLa", "mutations": "I84S", "value": ">10"}
{"smiles": "CCN1c2ncc(CCOc3ccc(CC(=O)O)c4ccccc34)cc2C(=O)N(C)c2ccc(Cl)nc21", "cell line": "C8166", "mutations": "RT-K103N Y181C", "value": "1"}
{"smiles": "Cc1cc(C)cc(S(=O)(=O)c2c(C(=O)/C=C/C(N)=O)[nH]c3ccc(Cl)cc23)c1", "strain or isolate": "IIIB", "cell line": "C8166", "mutations": "RT-Y181C", "value": "10"}
{"smiles": "CCN1c2ncc(CCOc3cccc4c3CNC(=O)N4)cc2C(=O)Nc2c(C)ccnc21", "cell line": "C8166", "mutations": "RT-K103N Y181C", "value": ">1"}
{"smiles": "COC(=O)[C@H](C)NP(=O)(OC[C@@H]1C=C[C@H](n2cc(C)c(=O)[nH]c2=O)O1)Oc1c(OC)cccc1OC", "strain or isolate": "RTMDR", "cell line": "PBMC", "mutations": "RT M41L L74V T215Y V106N", "value": "184"}
{"smiles": "O=C1Nc2ccc(Cl)c(O)c2[C@@](C#CC2CC2)(C(F)(F)F)N1", "cell line": "MT-4", "mutations": "RT-K103N", "value": "7.78"}
{"smiles": "O=C(CSc1nnnn1-c1cccc2ccccc12)Nc1cccc(Cl)c1Cl", "strain or isolate": "RT-K103N Y181C", "cell line": "C8166", "mutations": "1(RT-K103N Y181C)", "value": ">2"}
{"smiles": "CCN1c2ncc(CCOc3ccc(-c4ccc(C(=O)O)s4)cc3C)cc2C(=O)N(C)c2cccnc21", "cell line": "C8166", "mutations": "RT-K103N Y181C", "value": ">1"}
{"smiles": "CCCCCCCCCCCCCCCCCCOC[C@H](COP(=O)(O)C(=O)O)OCC", "strain or isolate": "LAI", "cell line": "MT-2", "mutations": "RT-K65R", "value": "3.18"}
{"smiles": "CCN1c2ncc(CCOc3ccc(CCC(=O)O)c4c3CCCC4)cc2C(=O)N(C)c2cccnc21", "cell line": "C8166", "mutations": "RT-K103N Y181C", "value": "1"}
{"smiles": "Nc1nc(=O)n([C@H]2C=C[C@@H](CO)O2)cc1F", "strain or isolate": "XM-ABC-resistant", "cell line": "PBMC", "mutations": "RT-K65R L74V M184V Y115F", "value": "3.6"}
{"smiles": "CCN1c2ncc(CCOc3ccc(CCC(=O)O)c4ccccc34)cc2C(=O)Nc2c(C)cc(Cl)nc21", "cell line": "C8166", "mutations": "RT-K103N Y181C", "value": "1–10"}
{"smiles": "NC(=O)c1[nH]c2ccc(Cl)cc2c1S(=O)(=O)c1ccccc1", "strain or isolate": "EFV-resistant (RT K103R V179D P225H)", "cell line": "C8166", "mutations": "RT-K103R V179D P225H", "value": "900"}
{"smiles": "CCN1c2ncc(CCOc3ccc(C(=O)c4ccc(C(=O)O)cc4)cc3C)cc2C(=O)N(C)c2cccnc21", "cell line": "C8166", "mutations": "RT-K103N Y181C", "value": ">1"}
{"smiles": "CCN1c2ncc(CCOc3ccc(C(=O)O)c4c3CCC4)cc2C(=O)N(C)c2cccnc21", "cell line": "C8166", "mutations": "RT-K103N Y181C", "value": "1"}
{"smiles": "CCN1c2ncc(CCOc3cccc4c3CNC4=O)cc2C(=O)N(C)c2cccnc21", "cell line": "C8166", "mutations": "RT-K103N Y181C", "value": "1"}
{"smiles": "CCN1c2ncc(CCOc3ccc(-c4ccc(C(O)C(=O)O)cc4)cc3C)cc2C(=O)N(C)c2cccnc21", "cell line": "C8166", "mutations": "RT-K103N Y181C", "value": "1"}
{"smiles": "O=C1Nc2ccc(Cl)cc2[C@@](/C=C/C2CC2)(C(F)(F)F)N1", "cell line": "MT-4", "mutations": "RT-L100I K103N", "value": "805"}
{"smiles": "CCN1c2nc(C(F)(F)F)ccc2NC(=O)c2cc(CCOc3cc[n+]([O-])c4ccccc34)cnc21", "cell line": "C8166", "mutations": "RT-Y188L", "value": "40.6"}
{"smiles": "CCN1c2ncc(CCOc3ccc(/C=C/C(=O)O)c4ccccc34)cc2C(=O)Nc2c(C)ccnc21", "cell line": "C8166", "mutations": "RT-K103N Y181C", "value": "1"}
{"smiles": "Nc1ccn([C@H]2CO[C@@H](CO)S2)c(=O)n1", "strain or isolate": "NL4-3", "cell line": "PBMC", "mutations": "RT-M184V", "value": "1.3"}
{"smiles": "COC(=O)[C@H](C)NP(=O)(OC[C@@H]1C=C[C@H](n2cc(C)c(=O)[nH]c2=O)O1)Oc1ccc(Cl)cc1", "strain or isolate": "RTMDR", "cell line": "PBMC", "mutations": "RT M41L L74V T215Y V106N", "value": "62"}
{"smiles": "CCN1c2ncc(CCOc3ccc(CC(=O)NN)c4ccccc34)cc2C(=O)N(C)c2ccc(Cl)nc21", "cell line": "C8166", "mutations": "RT-K103N Y181C", "value": "1"}
{"smiles": "CCN1c2ncc(CCOc3ccc(-c4ccc(O)cc4)cc3C)cc2C(=O)N(C)c2cccnc21", "cell line": "C8166", "mutations": "RT-K103N Y181C", "value": "1"}
{"smiles": "COc1c(Cl)ccc2c1[C@@](C#Cc1cccnc1)(C(F)(F)F)NC(=O)N2", "cell line": "MT-4", "mutations": "RT-K103N", "value": "20.7"}
{"smiles": "CCN1c2ncc(CCOc3cccc4c3CN(O)C4=O)cc2C(=O)N(C)c2cccnc21", "cell line": "C8166", "mutations": "RT-K103N Y181C", "value": ">1"}
{"smiles": "CCN1c2ncc(CCOc3ccc(-c4cnc[nH]4)cc3C)cc2C(=O)N(C)c2cccnc21", "cell line": "C8166", "mutations": "RT-K103N Y181C", "value": "1"}
{"smiles": "CCCCCCCCCCCCCCCCCCOCCOP(=O)(O)CO[C@H](CO)Cn1cnc2c(N)ncnc21", "strain or isolate": "4xAZT", "cell line": "MT-2", "mutations": "RT-D67N K70R T215Y K219Q", "value": "0.025"}
{"smiles": "CC1(C)Oc2ccc3ccc(=O)oc3c2[C@@H](OC(=O)C23CCC(C)(C(=O)O2)C3(C)C)[C@H]1OC(=O)C12CCC(C)(C(=O)O1)C2(C)C", "strain or isolate": "NL4-3", "cell line": "MT-4", "mutations": "RT-G550K", "value": "0.72"}

For reference, 4 entries again:

smiles | strain or isolate | cell line | mutations | value
CCN1c2ncc(CCOc3ccc(CC(=O)NN)c4ccccc34)cc2C(=O)N(C)c2ccc(Cl)nc21 | - | C8166 | RT-K103N Y181C | 1
CCN1c2ncc(CCOc3ccc(-c4ccc(C(=O)O)s4)cc3C)cc2C(=O)N(C)c2cccnc21 | - | C8166 | RT-K103N Y181C | >1
Nc1nc(=O)n([C@H]2C=C[C@@H](CO)O2)cc1F | XM-ABC-resistant | PBMC | RT-K65R L74V M184V Y115F | 3.6
CC(C)[C@H](NC(=O)OCc1ccccn1)C(=O)N[C@@H](Cc1ccccc1)[C@@H](O)C[C@H](Cc1ccccc1)NC(=O)OCc1cccnc1 | NL4-3 | MT-4 | PR-L63P V82T I84V | 3.75